What was measured:
[1] = molecular target: T. vaginalis Tv20S proteasome β1 subunit (Trichomonas vaginalis, UniProt A2E7Z2); assay: In vitro proteasome assay, Ac-RYFD-amc substrate; format: biochemical; details: recombinant Tv20S, mean ± SD of three experiments
Experimental: (§1) The T. vaginalis proteasome was expressed in recombinant form as previously described ([27]). Briefly, Spodoptera frugiperda cells were co-infected with three baculovirus vectors carrying the T. vaginalis genes for the 7 α-subunits, 7 β-subunits, and the Ump-1 chaperone, respectively. The resulting proteasome complex was purified from cell lysates via streptavidin column and size exclusion chromatography and stored at −80°C. Purified human c20S proteasome and recombinant human proteasome activator PA28α ([21]) were obtained from Bio-Techne and stored at −80°C. Dilutions of the test agents were transferred to 384-well plates (Greiner Bio-One) in triplicate wells using an Echo 650 Acoustic Liquid Handler (Beckman Coulter). Six replicate plates were prepared for each compound for testing with three T. vaginalis-optimized substrates and three human-optimized substrates. After dispensing, plates were sealed and stored at −20°C. The following fluorescent substrates and final substrate concentrations were used to assay subunit activities of the T. vaginalis proteasome (Tv20S) ([28]) or the human constitutive proteasome (c20S) ([19], [52]): Ac-RYFD-amc (Genscript) at 100 µM for Tv20S β1 subunit, Ac-FRSR-amc (Genscript) at 20 µM for Tv20S β2 subunit, Ac-GWYL-amc (Genscript) at 20 µM for Tv20S β5 subunit, z-LLE-amc (R&D Systems) at 80 µM for c20S β1 subunit, z-VLR-amc (AdipoGen Life Sciences) at 30 µM for c20S β2 subunit, and suc-LLVY-amc (R&D Systems) at 65 µM for c20S β5 subunit. Substrates and proteasomes were diluted in an assay buffer consisting of HEPES pH 7.5 and 1 mM DTT. For the human proteasome assays, 2 nM c20S was incubated at room temperature with 200 nM PA28α for 1 h to activate the complex prior to addition to the 384-well plates containing the substrate-inhibitor mixtures. […] Both proteasomes were added to the wells at a 1 nM final assay concentration. Fluorescence was measured over 4 h at 360 nm excitation and 460 nm emission on a Biotek Synergy HTX plate reader.

Chains of the proteins cited; added tags and fusions are not shown. Residues count along the entry.
UniProt A2E7Z2, 13-216 limits assumed: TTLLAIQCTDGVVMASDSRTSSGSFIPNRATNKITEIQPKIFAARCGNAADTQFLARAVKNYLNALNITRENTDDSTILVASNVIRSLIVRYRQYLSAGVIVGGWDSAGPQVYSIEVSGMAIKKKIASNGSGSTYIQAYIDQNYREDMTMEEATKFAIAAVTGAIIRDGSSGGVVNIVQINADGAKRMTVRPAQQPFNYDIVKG
UniProt A2DD57, 54-256 limits assumed: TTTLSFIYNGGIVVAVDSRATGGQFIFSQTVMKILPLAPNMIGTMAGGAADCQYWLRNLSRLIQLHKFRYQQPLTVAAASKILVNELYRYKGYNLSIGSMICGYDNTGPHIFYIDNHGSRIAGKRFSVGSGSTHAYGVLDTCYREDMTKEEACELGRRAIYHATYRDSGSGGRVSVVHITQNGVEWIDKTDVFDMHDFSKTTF
UniProt A2F716, 12-224 limits assumed: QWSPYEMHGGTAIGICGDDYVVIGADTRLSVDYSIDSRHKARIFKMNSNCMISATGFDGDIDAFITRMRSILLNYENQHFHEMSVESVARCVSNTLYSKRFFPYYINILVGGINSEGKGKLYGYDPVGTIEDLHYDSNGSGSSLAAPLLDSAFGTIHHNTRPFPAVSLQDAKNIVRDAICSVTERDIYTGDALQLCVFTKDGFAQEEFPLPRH

[2] = test system: T. vaginalis Tv20S proteasome β2 subunit; assay: In vitro proteasome assay, Ac-FRSR-amc substrate; format: biochemical, Trichomonas vaginalis; details: recombinant Tv20S, mean ± SD of three experiments; for IC50: read-out: Tv20S proteasome inhibition of β2 subunit (IC50)
Experimental: as §1

[3] = molecular target: T. vaginalis Tv20S proteasome β5 subunit (Trichomonas vaginalis, UniProt A2DD57+A2F716); details: read-out: Tv20S proteasome inhibition of β5 subunit (IC50); recombinant Tv20S, mean ± SD of three experiments

COc1ccc(C[C@@H](C(=O)N[C@@H](CC(=O)N2CCCC2)C(=O)N[C@@H](Cc2ccc(F)cc2)C(=O)N[C@@H](Cc2ccc(F)cc2F)C(=O)[C@@]2(C)CO2)N2CCCC2=O)cc1 was tested, and the “Tv20S proteasome inhibition of β1 subunit (IC50)” value [1] was “Activation”, the IC50 [2] was 3550 nM and the IC50 [3] was 2.98 nM.

CCCC[C@H](NC(=O)[C@H](CC(=O)N1CCCC1)NC(=O)[C@H](Cc1ccc(OC)cc1)N1CCCC1=O)C(=O)N[C@@H](Cc1ccc(F)cc1F)C(=O)[C@@]1(C)CO1 [compound 45] was tested, and the “Tv20S proteasome inhibition of β1 subunit (IC50)” value [1] was “Activation”, the IC50 [2] was 1590 nM and the IC50 [3] was 2.93 nM.

In the case of CCCCCC(=O)N[C@@H](Cc1cccnc1)C(=O)N[C@@H](CCCC)C(=O)N[C@@H](Cc1ccccc1)C(=O)[C@@]1(C)CO1, the “Tv20S proteasome inhibition of β1 subunit (IC50)” value [1] is reported as “Activation”, the “Tv20S proteasome inhibition of β2 subunit (IC50)” value [2] is reported as “No inhibition” and the IC50 [3] is reported as 34.4 nM.

Source: article PMC12691669, “Inhibitors of the 20S proteasome β5 subunit as potent and selective agents against Trichomonas vaginalis” (Antimicrobial Agents and Chemotherapy, 2025)
